The series concerns T1, HpyF30I restriction endonuclease (Helicobacter pylori RFL30).
T1 sequence: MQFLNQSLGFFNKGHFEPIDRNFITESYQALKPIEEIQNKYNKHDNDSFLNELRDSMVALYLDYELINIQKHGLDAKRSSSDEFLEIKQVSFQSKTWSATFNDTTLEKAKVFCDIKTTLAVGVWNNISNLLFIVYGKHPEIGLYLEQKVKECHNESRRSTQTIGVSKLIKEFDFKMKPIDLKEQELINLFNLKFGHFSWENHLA
The series can be described thus: enzyme reaction in vitro. The following applies: 37 C, purified recombinant protein.

Negatives hold for the conditions tested. Where a protein sequence is shown, tags need not be part of it.

As for “AGCACTCTAGAGGATCCCCGGGTACCGAGCTCGAATTCACTGGCCGTCGTTTTAC (double strand) [55 bp TCGA oligonucleotide m5C]”, under “5mC in TCGA of both strands (lower strand filled in with dm5CTP), resistant at highest enzyme amount, Tango, variant of 55 bp TCGA oligonucleotide”, the “activity on this sequence” value is “not active”.

As to “AGCACTCTAGAGGATCCCCGGGTACCGAGCTCGAATTCACTGGCCGTCGTTTTAC (double strand) [55 bp TCGA oligonucleotide]”, the “activity on this sequence” value (blunt cut TC/GA, Tango buffer, 10 mM Mg acetate) is “active”.

Values taken from patent US20140011196.
